Measured values: patent US20190330275A1 (priority 2016, published 2019)

Protein sequences, listed by entry. Tags and fused reporters are not part of them. Residues count along the entry.
UniProt P04757, 26-499 limits assumed: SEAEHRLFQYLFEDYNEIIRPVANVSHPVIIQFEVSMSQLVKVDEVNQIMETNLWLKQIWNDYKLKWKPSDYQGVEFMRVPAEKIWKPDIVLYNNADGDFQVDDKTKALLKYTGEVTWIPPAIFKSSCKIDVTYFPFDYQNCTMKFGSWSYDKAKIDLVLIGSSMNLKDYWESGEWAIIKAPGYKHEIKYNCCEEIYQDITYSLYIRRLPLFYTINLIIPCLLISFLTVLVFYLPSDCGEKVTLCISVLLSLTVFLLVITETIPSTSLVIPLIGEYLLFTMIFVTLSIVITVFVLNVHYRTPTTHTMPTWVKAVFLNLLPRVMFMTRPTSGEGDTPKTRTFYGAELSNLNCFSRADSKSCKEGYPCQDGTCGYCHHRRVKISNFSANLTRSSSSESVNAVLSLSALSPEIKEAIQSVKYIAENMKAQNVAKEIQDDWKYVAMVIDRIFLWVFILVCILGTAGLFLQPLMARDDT
UniProt P04757, whole entry, looked up: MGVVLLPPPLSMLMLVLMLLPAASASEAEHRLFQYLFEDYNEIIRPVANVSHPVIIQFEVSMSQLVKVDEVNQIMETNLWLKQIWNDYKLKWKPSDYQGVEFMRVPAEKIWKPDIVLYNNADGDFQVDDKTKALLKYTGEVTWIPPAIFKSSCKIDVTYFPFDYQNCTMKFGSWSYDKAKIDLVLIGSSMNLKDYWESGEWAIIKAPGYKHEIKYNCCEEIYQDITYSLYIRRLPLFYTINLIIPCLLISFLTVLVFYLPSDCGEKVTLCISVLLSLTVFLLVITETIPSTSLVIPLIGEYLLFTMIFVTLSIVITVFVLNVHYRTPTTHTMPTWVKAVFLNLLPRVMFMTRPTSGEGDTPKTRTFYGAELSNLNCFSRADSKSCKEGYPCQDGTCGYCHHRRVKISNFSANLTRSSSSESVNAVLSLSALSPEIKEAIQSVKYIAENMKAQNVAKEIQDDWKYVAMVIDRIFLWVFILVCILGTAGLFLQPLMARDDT
UniProt P12392, 21-495 limits assumed: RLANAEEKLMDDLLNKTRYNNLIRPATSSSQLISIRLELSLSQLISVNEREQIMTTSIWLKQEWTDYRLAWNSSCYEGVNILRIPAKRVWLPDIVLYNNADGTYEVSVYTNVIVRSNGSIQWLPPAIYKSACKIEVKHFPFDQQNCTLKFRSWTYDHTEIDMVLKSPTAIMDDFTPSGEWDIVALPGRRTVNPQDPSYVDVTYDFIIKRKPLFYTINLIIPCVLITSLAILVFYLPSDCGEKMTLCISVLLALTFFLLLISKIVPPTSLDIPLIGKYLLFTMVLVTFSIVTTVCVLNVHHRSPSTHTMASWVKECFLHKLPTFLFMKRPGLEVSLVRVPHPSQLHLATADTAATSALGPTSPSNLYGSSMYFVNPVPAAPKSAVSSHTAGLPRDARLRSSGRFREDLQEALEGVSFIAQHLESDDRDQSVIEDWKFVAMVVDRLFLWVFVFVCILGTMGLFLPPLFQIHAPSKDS
UniProt P12392, whole entry, looked up: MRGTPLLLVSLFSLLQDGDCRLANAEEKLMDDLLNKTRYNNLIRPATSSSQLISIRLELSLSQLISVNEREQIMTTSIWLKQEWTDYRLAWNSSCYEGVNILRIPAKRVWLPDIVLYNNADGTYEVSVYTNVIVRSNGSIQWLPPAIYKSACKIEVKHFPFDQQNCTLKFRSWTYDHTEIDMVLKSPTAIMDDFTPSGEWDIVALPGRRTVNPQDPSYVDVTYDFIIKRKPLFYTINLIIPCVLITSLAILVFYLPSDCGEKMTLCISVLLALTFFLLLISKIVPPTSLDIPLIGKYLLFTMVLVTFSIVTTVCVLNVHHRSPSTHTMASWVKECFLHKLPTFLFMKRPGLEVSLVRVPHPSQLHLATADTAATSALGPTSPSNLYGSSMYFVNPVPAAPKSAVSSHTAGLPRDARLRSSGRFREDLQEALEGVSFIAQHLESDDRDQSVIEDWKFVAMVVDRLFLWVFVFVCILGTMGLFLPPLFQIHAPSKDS
UniProt P43143, whole entry, looked up: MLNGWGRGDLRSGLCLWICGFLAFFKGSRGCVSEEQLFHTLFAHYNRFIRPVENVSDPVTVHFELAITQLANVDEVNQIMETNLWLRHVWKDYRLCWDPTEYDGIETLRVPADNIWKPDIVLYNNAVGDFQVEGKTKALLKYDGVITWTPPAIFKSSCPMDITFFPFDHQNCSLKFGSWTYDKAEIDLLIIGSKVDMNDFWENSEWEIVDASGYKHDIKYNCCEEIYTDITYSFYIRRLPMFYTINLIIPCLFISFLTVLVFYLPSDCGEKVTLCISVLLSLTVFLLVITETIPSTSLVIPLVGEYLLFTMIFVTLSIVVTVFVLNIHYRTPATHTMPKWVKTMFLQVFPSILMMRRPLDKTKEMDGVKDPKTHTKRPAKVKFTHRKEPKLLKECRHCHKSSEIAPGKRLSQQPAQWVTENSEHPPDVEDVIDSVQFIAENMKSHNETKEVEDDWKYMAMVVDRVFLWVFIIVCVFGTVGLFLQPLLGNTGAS

Columns and labels:
rat α3β4 nAChR = rat α3β4 nAChR (Rattus norvegicus, UniProt P04757+P12392); settings: for α3β4 IC50 ratio: IC50 of TxID mutant to α3β4 nAChR / IC50 of wild-type TxID to α3β4 nAChR
rat α6/α3β4 nAChR = rat α6/α3β4 nAChR (Rattus norvegicus, UniProt P04757+P12392+P43143); settings: for α6/α3β4 IC50 ratio: IC50 of TxID mutant to α6/α3β4 nAChR / IC50 of wild-type TxID to α6/α3β4 nAChR; for IC50 ratio of α6/α3β4 vs. α3β4 (Discrimination): IC50 of each peptide to α6/α3β4 nAChR / its IC50 to α3β4 nAChR

Row | SMILES | decrease of blocking (binding) activity to α3β4 nAChR in comparison with wild type TxID (rat α3β4 nAChR) | α3β4 IC50 ratio (rat α3β4 nAChR) | decrease of blocking (binding) activity to α6/α3β4 nAChR in comparison with wild type TxID (rat α6/α3β4 nAChR) | α6/α3β4 IC50 ratio (rat α6/α3β4 nAChR) | IC50 ratio of α6/α3β4 vs. α3β4 (Discrimination) (rat α6/α3β4 nAChR) | decrease of blocking (binding) activity to α6/α3β4 nAChR in comparison with wild type TxID (rat α6/α3β4 nAChR; listed as TxID [G1A])
1 | CC[C@H](C)[C@@H]1NC(=O)[C@@H]2CCCN2C(=O)[C@H](CO)NC(=O)[C@H](CCSC)NC(=O)[C@H](C)NC(=O)[C@H](CO)NC(=O)[C@@H]2CSSC[C@H](NC(=O)[C@H](C)N)C(=O)N[C@@H](CSSC[C@@H](C(N)=O)NC1=O)C(=O)N[C@@H](CO)C(=O)N[C@@H](Cc1c[nH]cn1)C(=O)N1CCC[C@H]1C(=O)N[C@@H](C(C)C)C(=O)N2 [TxID[G1A]] | 17 times | 17.0 | 8.2 times | 8.2 | 4.5 | 8 times
2 | CC[C@H](C)[C@@H]1NC(=O)[C@H](C)NC(=O)[C@H](CO)NC(=O)[C@@H]2CSSC[C@H](NC(=O)CN)C(=O)N[C@@H](CSSC[C@@H](C(N)=O)NC(=O)[C@H]([C@@H](C)CC)NC(=O)[C@@H]3CCCN3C(=O)[C@H](CO)NC1=O)C(=O)N[C@@H](CO)C(=O)N[C@@H](Cc1c[nH]cn1)C(=O)N1CCC[C@H]1C(=O)N[C@@H](C(C)C)C(=O)N2 [TxID[M11I]] | 20 times | 20.6 |  | 1.5 | 0.7 | 

Read-outs that look alike come from different tables or passages of the source.
